Measured values as given in PMC7038234, “Screening of Natural Extracts for Inhibitors against Japanese Encephalitis Virus Infection” (Antimicrobial Agents and Chemotherapy, 2020).
Where a name gives a salt, the structure may show the parent alone.

Each compound was assayed on JEV strain AT31 (assay: microbe, parasite or virus in culture). Details: Japanese encephalitis virus, 24 h, Primary screening of 1034 compounds in the natural extracts library.
Work on `CC[C@H]1CN2CCc3cc(OC)c(OC)cc3[C@@H]2C[C@@H]1C[C@H]1NCCc2cc(OC)c(OC)cc21` [Emetine hydrochloride] yielded an inhibition at 50 µM of 12.7%. `CC1OC(OC2C(=O)c3c(O)cc(O)cc3OC2c2ccc(O)cc2)C(O)C(O)C1O` (centres unmarked) [Engeletin] was tested, and the inhibition at 50 µM was 38.1%. With `CC(C)[C@@H](C)/C=C/[C@@H](C)[C@H]1CC[C@H]2C3=CC=C4C[C@@H](O)CC[C@]4(C)[C@H]3CC[C@]12C` [Ergosterol] the inhibition at 50 µM was 12%. `O=C1C[C@@H](c2ccc(O)c(O)c2)Oc2cc(O)cc(O)c21` [Eriodictyol] was tested, and the inhibition at 50 µM was -1.85%. Compound `CCOC(=O)/C=C/c1ccc(O)c(O)c1` [Ethyl caffeate] has an inhibition at 50 µM of 14.6%. Compound `CCOC(=O)c1cc(O)c(O)c(O)c1` [Ethyl gallate] has an inhibition at 50 µM of 9.31%. With `CCOC(=O)c1ccc(O)cc1` [Ethylparaben] the inhibition at 50 µM was -5.48%. For `COc1ccc(-c2cc(=O)c3c(O)c(OC)c(O)cc3o2)cc1OC` [Eupatilin], the inhibition at 50 µM was 34.9%. `O=C(C[C@H]1NCCC[C@@H]1O)Cn1cnc2ccccc2c1=O` [Febrifugine] was tested, and the inhibition at 50 µM was 54.7%. `COc1ccc(-c2coc3cc(O)ccc3c2=O)cc1` [Formononetin] gave an inhibition at 50 µM of -6.97%. For `COc1cc2oc(=O)ccc2c(OC)c1O` [Fraxinol], the inhibition at 50 µM was 7.4%. Work on `O=C(CO)[C@@H](O)[C@H](O)[C@H](O)CO` [Fructose] yielded an inhibition at 50 µM of -4.45%. `O=c1c(O)c(-c2ccccc2)oc2cc(O)cc(O)c12` [Galangin] showed an inhibition at 50 µM of 57.4%. Compound `COc1ccc2c3c1O[C@H]1C[C@@H](O)C=C[C@@]31CCN(C)C2` [Galanthamine] has an inhibition at 50 µM of -6.31%. Compound `O=C(O)c1cc(O)c(O)c(O)c1` [Gallic acid] has an inhibition at 50 µM of 98.6%. `CC(C)=CCC[C@]1(C)C=Cc2c(O)c3c(c(CC=C(C)C)c2O1)O[C@]12C(=C[C@@H]4C[C@H]1C(C)(C)O[C@@]2(C/C=C(/C)C(=O)O)C4=O)C3=O` [Gambogic acid] showed an inhibition at 50 µM of 84.8%. Compound `OCc1ccc(O[C@@H]2O[C@H](CO)[C@@H](O)[C@H](O)[C@H]2O)cc1` [Gastrodin] has an inhibition at 50 µM of 81.5%. `C=C[C@]12CN(C)[C@@H]3[C@H]4CO[C@H](C[C@H]41)[C@]1(C(=O)Nc4ccccc41)[C@@H]32` [Gelsemine] was tested, and the inhibition at 50 µM was 99.1%. Compound `COC(=O)C1=CO[C@@H](O)[C@@H]2C(CO)=CC[C@H]12` [Genipin] has an inhibition at 50 µM of -0.628%. Compound `O=C(O)C1=CO[C@@H](O[C@@H]2O[C@H](CO)[C@@H](O)[C@H](O)[C@H]2O)[C@@H]2C(CO)=CC[C@H]12` [Geniposidic acid] has an inhibition at 50 µM of -0.401%. `O=c1c(-c2ccc(O)cc2)coc2cc(O)cc(O)c12` [Genistein] showed an inhibition at 50 µM of 27.9%. `O=c1c(-c2ccc(O)cc2)coc2cc(O[C@@H]3O[C@H](CO)[C@@H](O)[C@H](O)[C@H]3O)cc(O)c12` [Genistin] gave an inhibition at 50 µM of 5.29%. `CC(C)=CCC[C@](C)(O[C@@H]1O[C@H](CO[C@@H]2OC[C@@H](O)[C@H](O)[C@H]2O)[C@@H](O)[C@H](O)[C@H]1O)[C@H]1CC[C@]2(C)[C@@H]1[C@H](O)C[C@@H]1[C@@]3(C)CC[C@H](O[C@@H]4O[C@H](CO)[C@@H](O)[C@H](O)[C@H]4O[C@@H]4O[C@H](CO)[C@@H](O)[C@H](O)[C@H]4O)C(C)(C)[C@@H]3CC[C@]12C` [Ginsenoside Rb3] gave an inhibition at 50 µM of 29.5%. Work on `CC(C)=CCC[C@](C)(O[C@@H]1O[C@H](CO)[C@@H](O)[C@H](O)[C@H]1O)[C@H]1CC[C@]2(C)[C@@H]1[C@H](O)C[C@@H]1[C@@]3(C)CC[C@H](O)C(C)(C)[C@@H]3[C@@H](O[C@@H]3O[C@H](CO)[C@@H](O)[C@H](O)[C@H]3O)C[C@]12C` [Ginsenoside Rg1] yielded an inhibition at 50 µM of 7.93%. With `CC(C)=CCC[C@](C)(O)[C@H]1CC[C@]2(C)[C@@H]1[C@H](O)C[C@@H]1[C@@]3(C)CC[C@H](O)C(C)(C)[C@@H]3[C@@H](O[C@@H]3O[C@H](CO)[C@@H](O)[C@H](O)[C@H]3O[C@@H]3O[C@@H](C)[C@H](O)[C@@H](O)[C@H]3O)C[C@]12C` [Ginsenoside Rg2] the inhibition at 50 µM was 6.46%. With `CC(C)=CCC[C@](C)(O)[C@H]1CC[C@]2(C)[C@@H]1[C@H](O)C[C@@H]1[C@@]3(C)CC[C@H](O)C(C)(C)[C@@H]3[C@@H](O[C@@H]3O[C@H](CO)[C@@H](O)[C@H](O)[C@H]3O)C[C@]12C` [Ginsenoside Rh1] the inhibition at 50 µM was -7.53%. `CC(C)=CCC[C@](C)(O)[C@H]1CC[C@]2(C)[C@@H]1[C@H](O)C[C@@H]1[C@@]3(C)CC[C@H](O[C@@H]4O[C@H](CO)[C@@H](O)[C@H](O)[C@H]4O)C(C)(C)[C@@H]3CC[C@]12C` [Ginsenoside Rh2] was tested, and the inhibition at 50 µM was 88.7%. Work on `CC(C)=CC/C=C(\C)[C@H]1CC[C@]2(C)[C@@H]1[C@H](O)C[C@@H]1[C@@]3(C)CC[C@H](O)C(C)(C)[C@@H]3[C@@H](O[C@@H]3O[C@H](CO)[C@@H](O)[C@H](O)[C@H]3O)C[C@]12C` [Ginsenoside Rh4] yielded an inhibition at 50 µM of 9.78%. Compound `CC1(C)C=Cc2c(ccc3c2OC[C@@H](c2ccc(O)cc2O)C3)O1` [Glabridin] has an inhibition at 50 µM of -2.9%. Work on `COc1cc2c(=O)c(-c3ccc(O)cc3)coc2cc1O` [Glycitein] yielded an inhibition at 50 µM of 5.33%. `CC1(C)[C@@H](O)CC[C@]2(C)[C@H]3C(=O)C=C4[C@@H]5C[C@@](C)(C(=O)O)CC[C@]5(C)CC[C@@]4(C)[C@]3(C)CC[C@@H]12` [Glycyrrhetinic acid] gave an inhibition at 50 µM of 25.6%. With `CC1(C)[C@@H](O[C@H]2O[C@H](C(=O)O)[C@@H](O)[C@H](O)[C@H]2O[C@@H]2O[C@H](C(=O)O)[C@@H](O)[C@H](O)[C@H]2O)CC[C@]2(C)[C@H]3C(=O)C=C4[C@@H]5C[C@@](C)(C(=O)O)CC[C@]5(C)CC[C@@]4(C)[C@]3(C)CC[C@@H]12` [Glycyrrhizic acid] the inhibition at 50 µM was -2.91%. Compound `Cc1cc2c(C(C)C)c(O)c(O)c(C=O)c2c(O)c1-c1c(C)cc2c(C(C)C)c(O)c(O)c(C=O)c2c1O` [Gossypol] has an inhibition at 50 µM of 69.6%. `COc1ccccc1O` [Guaiacol] showed an inhibition at 50 µM of -3.17%. With `COc1ccc2c(c1)[nH]c1c(C)nccc12` [Harmine. hydrochloride] the inhibition at 50 µM was 22.2%. For `C[C@]1(OC(=O)/C=C/c2ccccc2)C[C@@H](O)[C@]2(O)C=CO[C@@H](O[C@@H]3O[C@H](CO)[C@@H](O)[C@H](O)[C@H]3O)[C@@H]21` [Harpagoside], the inhibition at 50 µM was -0.596%. In the case of `CC1(C)CC[C@]2(C(=O)O)CC[C@]3(C)C(=CC[C@@H]4[C@@]5(C)CC[C@H](O)[C@@](C)(CO)[C@@H]5CC[C@]43C)[C@@H]2C1` [Hederagenin], the inhibition at 50 µM is reported as -34.9%. Work on `Oc1cc2c(cc1O)[C@@H]1c3ccc(O)c(O)c3OC[C@]1(O)C2` [Hematoxylin] yielded an inhibition at 50 µM of -6.88%. In the case of `Oc1ccc(CC2NCCc3cc(O)c(O)cc32)cc1` (centres unmarked) [Higenamine], the inhibition at 50 µM is reported as 19.2%. In the case of `COC(=O)C[C@](O)(CCCC(C)(C)O)C(=O)O[C@@H]1C(OC)=C[C@]23CCCN2CCc2cc4c(cc2[C@H]13)OCO4` [Homoharringtonine], the inhibition at 50 µM is reported as 43.5%. `Oc1ccc(O)cc1` [Hydroquinone] was tested, and the inhibition at 50 µM was -13.9%. Work on `OCCc1ccc(O)c(O)c1` [Hydroxytyrosol] yielded an inhibition at 50 µM of 18%. Compound `COC[C@@]12CC[C@H](OC)[C@]34C(C([C@H](OC)[C@H]13)[C@]1(OC(C)=O)[C@H]3[C@@H](OC(=O)c5ccccc5)[C@](O)(C[C@H]34)[C@@H](OC)[C@@H]1O)N(C)C2` [Hypaconitine] has an inhibition at 50 µM of 94.8%. For `Cc1cc(O)c2c(=O)c3c(O)cc(O)c4c5c(O)cc(O)c6c(=O)c7c(O)cc(C)c8c1c2c(c34)c(c78)c65` [Hypericin], the inhibition at 50 µM was 7.46%. `O=c1c(O[C@@H]2O[C@H](CO)[C@H](O)[C@H](O)[C@H]2O)c(-c2ccc(O)c(O)c2)oc2cc(O)cc(O)c12` [Hyperoside] was tested, and the inhibition at 50 µM was 13.9%. `CC1=C[C@]23C(=O)[C@@H](C=C(CO)[C@@H](O)[C@]2(O)[C@H]1O)[C@H]1[C@@H](C[C@H]3C)C1(C)C` [Ingenol] was tested, and the inhibition at 50 µM was -1.74%. `C=C[C@H]1CN2CC[C@@]3(C(=O)Nc4ccccc43)[C@@H]2C[C@@H]1/C(=C\OC)C(=O)OC` [Isocorynoxeine] gave an inhibition at 50 µM of 33.7%. Work on `COc1ccc(/C=C/C(=O)O)cc1O` [Isoferulic acid] yielded an inhibition at 50 µM of -13.2%. Compound `COc1ccc(C[C@@H]2c3cc(Oc4cc(C[C@@H]5c6cc(O)c(OC)cc6CCN5C)ccc4O)c(OC)cc3CCN2C)cc1` [Isoliensinine] has an inhibition at 50 µM of 99.4%. In the case of `O=C(/C=C/c1ccc(O)cc1)c1ccc(O)cc1O` [Isoliquiritigenin], the inhibition at 50 µM is reported as 59.1%. `CC1=CC(=O)CC(C)(C)C1` [Isophorone] showed an inhibition at 50 µM of 42.5%. `COc1c2ccoc2c(OC)c2oc(=O)ccc12` [Isopimpinellin] showed an inhibition at 50 µM of 27.4%. `CC(C)OC(=O)c1ccc(O)cc1` [Isopropyl 4-Hydroxybenzoate] was tested, and the inhibition at 50 µM was -16.3%. `O=c1ccc2ccc3occc3c2o1` [Isopsoralen] showed an inhibition at 50 µM of 21%. `COc1cc(-c2oc3cc(O)cc(O)c3c(=O)c2O)ccc1O` [Isorhamnetin] was tested, and the inhibition at 50 µM was 46.1%. `CC[C@H]1CN2CC[C@@]3(C(=O)Nc4ccccc43)[C@@H]2C[C@@H]1/C(=C\OC)C(=O)OC` [Isorhynchophylline] gave an inhibition at 50 µM of 15.1%. Compound `COc1cc2oc(=O)ccc2cc1O` [Isoscopoletin] has an inhibition at 50 µM of -9.14%. Work on `COc1ccc(C(=O)O)cc1O` [Isovanillic Acid] yielded an inhibition at 50 µM of 15.1%. With `COc1ccc(C=O)cc1O` [Isovanillin] the inhibition at 50 µM was 19.6%. With `O=c1cc(-c2ccc(O)cc2)oc2cc(O)c([C@@H]3O[C@H](CO)[C@@H](O)[C@H](O)[C@H]3O)c(O)c12` [Isovitexin] the inhibition at 50 µM was -8.28%. `COc1cc2c(cc1O)CC[n+]1cc3c(OC)c(OC)ccc3cc1-2` [Jatrorrhizine] was tested, and the inhibition at 50 µM was 83.3%. For `CC1=C2C(=O)[C@H]3[C@@H](CC=C4C[C@@H](O)CC[C@@]43C)[C@@H]2CC[C@]12O[C@@H]1C[C@H](C)CN[C@H]1[C@H]2C` [Jervine], the inhibition at 50 µM was -1.91%. Compound `C[C@@]1(CO)C[C@@H](O)C[C@@]2(C)[C@@H]3CC[C@](C)([C@@H](O)CO)C=C3CC[C@H]12` [Kirenol] has an inhibition at 50 µM of 12.3%. `C=C[C@@]12CN(C)[C@H]3C[C@]14C(=Nc1ccccc14)[C@H]1C[C@@H]2[C@@H]3CO1` [Koumine] gave an inhibition at 50 µM of 98.9%. In the case of `CCC/C=C1\OC(=O)C2=C1CCC=C2` [Ligustilide], the inhibition at 50 µM is reported as 39%. With `C=CC(C)(O)CCC=C(C)C` (centres unmarked) [Linalool] the inhibition at 50 µM was -3.9%. With `C/C1=C\CC[C@]23O[C@H]2[C@@H](OC3=O)c2c(C)coc2C1` [Linderane] the inhibition at 50 µM was 16.3%. `CCCCC/C=C\C/C=C\CCCCCCCC(=O)O` [Linoleic acid] showed an inhibition at 50 µM of 12.3%.
